Results reported in article PMC9161444 (Langmuir, 2022).
Values joined by “and” are separate entries in the source; they are usually repeats but may differ in a detail not shown here. Identical values can stand only once.

Experiments:
[1] = Lipid monolayer model, surface pressure change (Langmuir trough); conditions: spread between DPPG and DPPC monolayer interactions
[2] = Selective index and averaged ratios from MIC, EC50 and CAC; conditions: SI = sum of EC50 (HDFa, NIH/3T3, hRBC) / sum of MIC (E. coli, S. aureus, C. albicans)

For `CCCCCCCCCCCCCC[N+](C)(C)C.[Br-]` [C14TAB, tetradecyltrimethylammonium bromide], the “δ[Δπ] = ΔπDPPG – ΔπDPPC” value [1] was 5 mN/m and 6 ± 3 mN/m and the selective index [2] was 0.9 ± 0.7.
